Results of unrelated studies side by side (data: NIAID ChemDB).

Shared fields: growth or infection tests; species: Hepatitis B virus; cell line: HepG2.2.15; endpoint: EC50

Conditions beyond the fields shown may differ between rows. Two numbers with a dash give a range or band. An empty or dashed field is not shown. ECn is the concentration giving n% inhibition of infection, replication or growth.

structure	read by	result
CCOC(=O)C1=C(CN2CC(F)(F)[C@H]3[C@@H]2CCN3CC[C@@](C)(O)C(=O)O)NC(c2nccs2)=N[C@H]1c1ccc(F)c(F)c1Cl	PCR	0.014 µM
CC[C@]12CCC(C)(C)CC1[C@]1(CC(=O)O)CC[C@@]3(C)C4C[C@H](O)C(=O)O[C@H](C)[C@@]4(C)CCC3[C@@]1(C)CC2	ELISA / antigen	15.2 µM
Nc1ccn([C@@H]2CS[C@H](CO)O2)c(=O)n1	ELISA / antigen	870 µM
CN1CC(c2ccnn2C)Cn2nc3c(c2C1=O)CN(C(=O)Nc1ccc(F)c(C#N)c1)CC3	fluorescence	83 µM
O=C1OCc2c1cc1ccc3c(c1c2-c1ccc2c(c1)OCO2)OCO3	-	1 µM
N#CC[C@]1(O)CCC(F)(F)c2c3c(nn2C1)CCN(C(=O)Nc1ccc(F)c(C#N)c1)C3	fluorescence	0.016 µM
CSc1ncc(C(=O)NCCc2ccccn2)c(Nc2ccc3cn[nH]c3c2)n1	-	<0.1 µg/mL
COC(=O)C1=C(CN2CC(F)(F)[C@H]3[C@@H]2CCN3CC[C@@](C)(O)C(=O)O)NC(c2nccs2)=N[C@H]1c1ccc(F)c(F)c1C	PCR	0.046 µM
Nc1ccn([C@@H]2C=C[C@H](CO)O2)c(=O)n1	-	14 µM
CCCCCCCCCCCCCCCC(=O)O	ELISA / antigen	90.8 µM
O=C(c1ccc(Cl)cc1F)N1CCS(=O)(=O)[C@H](c2cccs2)C1	PCR	>5 µM
COc1ccc(CNC(=O)c2c3n(c(=O)n2-c2ccccc2)CCN(C(=O)Nc2ccc(F)c(Cl)c2)C3)cc1	PCR	0.1–0.5 µM
Nc1ccn([C@@H]2CS[C@H](CO)O2)c(=O)n1	-	0.22 µM
CCOC(=O)C1=C(CN2CC(F)(F)[C@H]3[C@@H]2CCN3C[C@](C)(F)C(=O)O)NC(c2nccs2)=N[C@H]1c1cccc(F)c1C	PCR	0.0495 µM
CCOC(=O)C1=C(C)NC(C2=NCCS2)=N[C@H]1c1ccc(F)cc1Cl	-	0.03 µM
Nc1ccn([C@@H]2CS[C@H](CO)O2)c(=O)n1	ELISA / antigen	41.3 µM
COC(=O)C1=C(C)NC(c2ncccc2Cl)=N[C@H]1c1ccc(F)cc1Cl	-	0.9 µM
O=C(Nc1ccc(F)c(Cl)c1)N1CCn2c(c3n(c2=O)CCN(Cc2ccccc2)C3=O)C1	PCR	0.5–5 µM
O=C(c1ccc(Br)c(Cl)c1)N1CCS(=O)(=O)[C@@H](c2cccs2)C1	PCR	<0.1 µM
CN1CC(c2ccn[nH]2)Cn2nc3c(c2C1=O)CN(C(=O)Nc1ccc(F)c(C#N)c1)CC3	fluorescence	93 µM
C[C@H]1Cn2c(c(C(=O)NC(C)(C)c3ccccc3)n(-c3ccc(-n4cccn4)cc3)c2=O)CN1C(=O)c1ccc(Br)c(Cl)c1	PCR	0.1–0.5 µM
CC1O[C@@H]2C[C@H]3[C@H]4C5=C(C(=O)OCC5=C[C@]13C1=C2C(=O)OCC1)[C@@H](O)[C@]12C(=O)OCCC1=C(C=O)[C@@H](C)O[C@H]42	PCR	2.58 µM
COC(=O)C1=C(C)NC(c2ccccn2)=N[C@H]1c1ccccc1Cl	-	2 µM
CSc1ncc(C(=O)NCCc2ccccn2)c(Nc2ccc3[nH]ncc3c2)n1	-	<0.1 µg/mL
C=C(C)[C@@H](CC)CC[C@@H](C)[C@H]1CCC2C3C[C@@H](O)[C@@]4(O)C[C@@H](O)CC[C@]4(C)C3CC[C@@]21C	ELISA / antigen	21.8 µM
[N-]=[N+]=NCCc1c(Cl)nc2ccc(Cl)cc2c1-c1ccccc1Cl	ELISA / antigen	2510 µM
Cc1cc(NC(=O)N2CCc3nn4c(c3C2)C(=O)N(C)CC(F)(c2ccccc2)C4)ccc1F	fluorescence	176 µM
C[C@H]1C(O)CCC2[C@]3(C)CC[C@@]4(C)C5CC(C)(C)CC[C@]5(C)CC[C@]4(C)C3CC[C@@]21C	ELISA / antigen	88.5 µM
CSc1ncc(C(=O)NCCO)c(Nc2ccc3cn[nH]c3c2)n1	-	<0.1 µg/mL
COC(=O)C1=C(COCCN)NC(c2ccccn2)=NC1c1ccccc1Cl	-	>100 µM
CSc1ncc(C(=O)NCc2cccnc2)c(Nc2ccc3cn[nH]c3c2)n1	-	<0.1 µg/mL
COC(=O)C1=C(C)NC(c2nccs2)=N[C@H]1c1ccc(F)cc1Cl	-	0.06 µM
O=C1NCCCn2c1c1n(c2=O)CCN(C(=O)Nc2cccc(Br)c2)C1	PCR	>5 µM
N#CCCC1C(=O)c2ccc(-c3cccc(C#N)c3)cc2OC12CCCC2	-	0.03 µM
COC(=O)C1=C(CN2CC(F)(F)[C@@H]3[C@H]2CON3CC[C@@](C)(O)C(=O)O)NC(c2nccs2)=N[C@H]1c1ccc(F)c(F)c1C	PCR	0.319 µM
O=C(Nc1ccc(F)c(Cl)c1)N1CCS(=O)(=O)[C@H](c2cccs2)C1	PCR	0.5–5 µM
COC(=O)C1=C(C)NC(c2ncc(F)cc2F)=N[C@H]1c1ccc(F)cc1Cl	-	0.06 µM
CNC(=O)c1cnc(SC)nc1Nc1ccc2cn[nH]c2c1	-	<0.1 µg/mL
Nc1ccn([C@@H]2CS[C@H](CO)O2)c(=O)n1	PCR	1 µM
C#C[C@]1(O)CCC(F)(F)c2c3c(nn2C1)CCN(C(=O)Nc1ccnc(Br)c1F)C3	fluorescence	0.199 µM
C[C@H]1CS(=O)(=O)[C@H](c2cccs2)CN1C(=O)c1ccc(Br)c(Cl)c1	PCR	0.1–0.5 µM
C[C@@H]1O[C@@H](O[C@@H]2C3O[C@@H](c4ccc(O)c(O)c4)COC3O[C@H](CO)[C@H]2O)[C@H](O)[C@H](O)[C@H]1O	ELISA / antigen	720 µM
CC1O[C@H]2[C@@H]3C4=C(C(=O)OCC4=C[C@@]45C6=C(C(=O)OCC6)[C@@H](C[C@@H]34)OC5C)[C@H]3O[C@H](O)[C@@H]1C1=CCOC(=O)[C@@]132	PCR	5.34 µM
O=C1NCCCn2c1c1n(c2=O)CCN(C(=O)c2ccc(Br)c(Cl)c2)C1	PCR	>5 µM
Cc1cc(NC(=O)N2CCc3nn4c(c3C2)C(=O)N(C)CC(O)(c2ccccc2)C4)ccc1F	fluorescence	140 µM
Cc1cn([C@H]2O[C@@H](CO)[C@H](O)[C@H]2F)c(=O)[nH]c1=O	-	0.1 µM
O=C(c1ccc(Br)c(Cl)c1)N1CCS(=O)(=O)[C@H](c2cccs2)C1	PCR	0.1–0.5 µM
Cc1cc(NC(=O)c2cc(-c3ccccc3)nc3ccccc23)ccc1F	-	0.6 µM
CSc1ncc(C(=O)NCCO)c(Nc2ccc3[nH]ncc3c2)n1	-	<0.1 µg/mL
Cc1cc(NC(=O)c2c(C(C)C)noc2C)ccc1F	-	0.15 µM
CSc1ncc(C(=O)N(C)CCO)c(Nc2ccc3[nH]ncc3c2)n1	-	~0.1 µg/mL
Cn1cnc(-c2ccc([C@H]3CN(C(=O)c4ccc(Br)c(Cl)c4)CCS3(=O)=O)s2)c1	PCR	0.5–5 µM

4 of the rows above, restated:

structure | read by | result
CSc1ncc(C(=O)N(C)CCO)c(Nc2ccc3[nH]ncc3c2)n1 | - | ~0.1 µg/mL
COc1ccc(CNC(=O)c2c3n(c(=O)n2-c2ccccc2)CCN(C(=O)Nc2ccc(F)c(Cl)c2)C3)cc1 | PCR | 0.1–0.5 µM
CCOC(=O)C1=C(CN2CC(F)(F)[C@H]3[C@@H]2CCN3CC[C@@](C)(O)C(=O)O)NC(c2nccs2)=N[C@H]1c1ccc(F)c(F)c1Cl | PCR | 0.014 µM
COC(=O)C1=C(CN2CC(F)(F)[C@H]3[C@@H]2CCN3CC[C@@](C)(O)C(=O)O)NC(c2nccs2)=N[C@H]1c1ccc(F)c(F)c1C | PCR | 0.046 µM